For at least one entry, the source does not settle the construct or the ends of the probe. For part of these data: At least one verdict was read from the data and is not stated in words by the source. For part of these data: Where a protein sequence is shown, tags need not be part of it.
Key:
CRP [1] = assay: EMSA; conditions: 1 mM cAMP, Lrp/H-NS/HlyU: 50 mM Tris-Cl pH 8.0, 20 mM KCl, 100 ug BSA, 1 mM DTT, 10% glycerol, 0.1 ug poly(dI-dC), 25 C, 0.5 h, CRP: 10 mM Tris-Cl pH 7.9, 50 mM NaCl, recombinant protein, protein details: His6 (pRSET A), probe letters rebuilt from the primers and the genome
[2] = test system: T1, Lrp (Vibrio vulnificus MO6-24/O); assay: EMSA; conditions: Lrp/H-NS/HlyU: 50 mM Tris-Cl pH 8.0, 20 mM KCl, 100 ug BSA, 1 mM DTT, 10% glycerol, 0.1 ug poly(dI-dC), 25 C, 0.5 h, CRP: 10 mM Tris-Cl pH 7.9, 50 mM NaCl, recombinant protein, residues 1-164, protein details: His6 (pET-28a(+)), probe letters rebuilt from the primers and the genome
T1 sequence (looked up): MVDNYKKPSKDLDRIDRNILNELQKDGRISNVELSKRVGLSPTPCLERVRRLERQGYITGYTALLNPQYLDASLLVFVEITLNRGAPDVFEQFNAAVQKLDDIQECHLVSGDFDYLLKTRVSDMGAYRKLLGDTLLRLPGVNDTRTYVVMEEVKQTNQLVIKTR

CRP [3] = assay: DNase I footprinting; conditions: 1 mM cAMP, Lrp/H-NS/HlyU: 50 mM Tris-Cl pH 8.0, 20 mM KCl, 100 ug BSA, 1 mM DTT, 10% glycerol, 0.1 ug poly(dI-dC), 25 C, 0.5 h, CRP: 10 mM Tris-Cl pH 7.9, 50 mM NaCl, recombinant protein, protein details: His6 (pRSET A), probe letters rebuilt from the primers and the genome
[4] = test system: T1, Lrp (Vibrio vulnificus MO6-24/O); assay: DNase I footprinting; conditions: phased hypersensitivity, Lrp/H-NS/HlyU: 50 mM Tris-Cl pH 8.0, 20 mM KCl, 100 ug BSA, 1 mM DTT, 10% glycerol, 0.1 ug poly(dI-dC), 25 C, 0.5 h, CRP: 10 mM Tris-Cl pH 7.9, 50 mM NaCl, recombinant protein, residues 1-164, protein details: His6 (pET-28a(+)), probe letters rebuilt from the primers and the genome

Measured: binding result

CACACAATGAAGACCAATAAACGAGCAAAACAGTCCGCAATTGATGATTGATCGTGTTAACAAGCGGTGATAGGATTCCGCCCCTTCAAAAACGCTGCAATAAACATCGGCTAAGTAATTTAATTATGTCCAACAATGAAGGGTTGACGCTGATATGTATTCACTTTTATTTAAGTATCATCAGCGGTAATAGAGAACAATTTAAAGAAAATGCTAATTTAACAAAAACTAATAATTACAAAGAAGAACTCGAAAAAATACAAAAAGCAAACAAAGTAAGAATAACCACAAAACATTCACAATTTAAAAACATAGAGAAAATAAAAACACCCGCCATTTTATTTGATTCACAAGGTGCACCATTTATTCTAGCAAAGGCTAATAAAGATAAATGTTTAATACAAAGACCTAATAAAGAAAGTCCAGAAGTGGTCTCTTATCACGAACTTAAC (double strand) [PrtxA probe 1]
binds: CRP [1]; one retarded band, self-competition | [2]; 400 nM Lrp, 5 mM L-histidine (no effect) | [2]; 400 nM Lrp, 5 mM L-tryptophan (no effect) | [2]; full retardation at 720 nM Lrp, self-competition | CRP [3]; CRPB1 -336/-297 protected | [4]; LRPB1 -453/-387 and LRPB2 -298/-219 protected

AATGAGCTCTGAAAAACCGATGCCTGCACCGGCATTAGTTTCAACAAAAACTTGGTGACCATGTGAGATAAGCTCTCTCACACTGGCTGGGATCATACCAACACGGTATTCGTGGTTCTTGATTTCCTTTGGAACGCCAATAATCATCCTGACTCCTCGTTTTATTCTGGTTGTATTGACTATGTGTAGGGTGTAATGTCGAATTTGTGCCTAGTATAGATGTGATGTGGCAAAATTTGATACTGAATATTAAAAAGTTGTAGTATATTTTTTTGCAAGGAAGTAATAAGGTGGAATAAAAAATGGTAGATAACTACAAAAAGCCGTCCAAGGATCTAGACCGTATCGATCGCAATATTTTGAATGAATTGCAGAAAGATGGTCGAATTTCAAACGTTGAACTCTCTAAGCGCGTGGGGCTTTCTCCAACTAGTAAA (double strand) [lrp upstream region]
binds: CRP [1]; one retarded band, self-competition, label: 32P on reverse primer

AGACTAGTTCATGTGTTGGTCCTCTAGCTACAACTCACATGTCCCAACGGTTGTTGCAGATAGTTGTGTTAAACAATTTTATAATTTAGGTTTATATTTTTGTAGATAGTAATCTATTTGGGGTATTCAAGGGAACGGTTTCATTCAAACAATTGGCTAAAATCTGCGTCACATACATTCTTTACTGCGGGATGTTGAATCATACGCTCAGCAAAGATCACGTAATACTCTTCTTTGAGATCGTCAACATGGCCAATGAGTTGTAAAGTCAGATCTTCTTCGATTTCTGAGATATAGACGGTCGGGGCAAGGAAAATGACATCATCATGGTAGCGAGCAAAGGCTTTCATTAGGGCCACATCATCAAATTCCCCTAAGACATCAGGTTGAATCCCTTGGCGATCAAACCACTGTAAAACCTTACGCCCCATCGCTGTTCGGCTCCCAGGAATCAACAGTTTTTTCTGCTCCAAAATTGCGGGAAATTCAGCATTATCTATTTTGGTGGAAGAGAAGAAACTCATGCTCGACTCACCCAGTTTCTTACTATATAGGCCGGGACTTTGTGTCGAGTCGAGCTCTTG (double strand) [hlyU upstream region]
binds: CRP [1]; self-competition, label: 32P on reverse primer

TTTCAGCCATTACGCCATTCGCCATATTTTTTTGATCCTGACCTACGAAATAAAGAGAAAAAACACCTTTATTGTAGTTAACACTAGATACTGTTTGAACAAACTTCTCAGTCATAAATTTCCCCTACTTATTTTATATAGATAAGACGAAAATCGTTCCTTTTAAAAGGAATCACTCTCCGCCTGCAAGCTCAATTAAAAGGCAAAATATAAGAATTCAGCCATAAATAATTATTGTAATGTTTATTTTGTGTCGAAATATTACATCGTAAAACAGTGGTCATCAATAGACTTAAATCGATTATATTAGAGCAATTATTCTATTTTTATCGGCCATTATTCACTCAATTCCATATTCATGTAACAATCACCTTGATTACCTATTAACGTGATATGCATCATTCATTTGAATCAAATCTGTGCAATAAACACACAATGAAGACCAATAAACG (double strand) [PrtxA probe 2]
binds: CRP [1]; two retarded bands, self-competition | [2]; 100 nM Lrp, 5 mM L-histidine (no effect) | [2]; 100 nM Lrp, 5 mM L-tryptophan (no effect) | [2]; full retardation at 180 nM Lrp, self-competition | CRP [3]; CRPB2 -145/-127 protected, CRPB3 -118/-92 at higher CRP | [4]; LRPB3 -63/-10 protected

TTTCAGCCATTACGCCATTCGCCATATTTTTTTGATCCTGACCTACGAAATAAAGAGAAAAAACACCTTTATTGTAGTTAACACTAGATACTGTTTGAACAAACTTCTCAGTCATAAATTTCCCCTACTTATTTTATATAGATAAGACGAAAATCGTTCCTTTTAAAAGGAATCACTCTCCGCCTGCAAGCTCAATTAAAAGGCAAAATATAAGAATTCAGCCATAAATAATTATTGTAATGTTTATTTTGTGTCGAAATATTACATCGTAAAACAGTGGTCATCAATAGACTTAAATCGATTATATTAGAGCAATTATTCTATTTTTATCGGCCATTATTCACTCAATTCCATCTTCATGGACGTAGGCCCTTGATTACCTATTAACGTGATATGCATCATTCATTTGAATCAAATCTGTGCAATAAACACACAATGAAGACCAATAAACG (double strand) [probe 2 mtCRPB3]
binds: CRP [1]; not significantly altered vs wild type, label: 32P
